Library screen at single concentrations

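Phenotypic screen: M. tuberculosis growth, glucose 7H9 medium, 3 days; the read-out is not stated. Concentration: 500 µM. The record gives no direction; compounds that gave an IC50 in retests scored well above the rest, so higher reads as more growth inhibition. Size under these conditions: about 18,000 compounds, about 1,400 of them at 50% or above in at least one test.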

The filed quantity is “Percent Effect” (%). The record does not define 0% and 100%; most values in the screen are far below 50% and negative numbers occur (in some assays of this library far below -100). The entries come from a sample that favours strong results.

structure,percent effect
O=C(Nc1nnc(-c2ccccn2)s1)N1CC[C@@H](O)C1,-2.959%
CS(=O)(=O)Nc1cccc(C(=O)Nc2ccccc2)c1,59.56%
Cc1ccc(C(N)c2ccccn2)cc1 (stereo unspecified),51.83%
COCC(C)(NCc1ccc(F)cc1)C(=O)OC (stereo unspecified),5.572%
CCCNC(=O)c1ccc(C(=O)OC)cc1,53.9%
CN1CCN(C(=O)CCSc2ccccc2)CC1,14.02%
Cn1cc(S(=O)(=O)NCC2(N)CCCCC2)cn1,-0.8875%
CCC1(CO)CCCN(c2ccncc2F)C1 (stereo unspecified),31.81%
COc1ccccc1OCCN(C)CC(N)=O,16.94%
NCCN1CCN(c2ccc(F)cc2)CC1,44.43%
CC(C)(C#N)C(=O)NCCNc1cccc(Br)c1,82.84%
CC(=O)N1CCCN(Cc2nc(C3CC3)no2)CC1,14.86%
Cc1cc(C(=O)N2CCN[C@H](C)C2)n[nH]1,9.843%
CCOCC(=O)NCC(O)c1cccc(C(F)(F)F)c1 (stereo unspecified),60.06%
CC(C)C(=O)Nc1ccc(CN2CCN(C)CC2)cc1,15.28%
CC(c1cccnc1)N(C)C(=O)c1cncc(F)c1 (stereo unspecified),12.22%
CCOC(=O)C1(C)CCC(=O)NC1 (stereo unspecified),4.489%
CNS(=O)(=O)c1ccc(C(=O)N2CCOCC2)o1,-24.09%
CC(=O)Nc1cc(Br)cnc1NC(C)=O,5.191%
CCN1CCN(CCOc2cccc(C(C)=O)c2)CC1,-15.35%
CCOc1cccc(CCN)n1,93.01%
O=C1CC(C(=O)Nc2cccnc2)c2ccccc2N1 (stereo unspecified),8.08%
CC(C)C(C)NC(=O)CS(=O)(=O)Cc1ccccc1 (stereo unspecified),34.33%
CNC1CCCN(Cc2noc(C)n2)C1 (stereo unspecified),7.886%
NCCOc1ccc2c(c1)OCO2,17.75%
Cc1ccc(NC(=O)C2CCCN2)nc1 (stereo unspecified),26.02%
COC(C)C(=O)NCc1cnc(C)s1 (stereo unspecified),14.43%
NCc1cc(C(F)(F)F)on1,6.089%
COCCN1CCC(CC(=O)N2CCN(C)CC2)CC1,-18.98%
CCn1ncnc1CNC(=O)Cn1nc(C)c(Cl)c1C,9.142%
O=C(CNC1CC1)NC[C@H]1CCc2ccccc2O1,68.44%
c1ccc(NCCNc2ccccn2)cc1,72.75%
COCc1nn(Cc2cccc(C#N)c2)c(=O)o1,40.56%
CCc1nnc(NC(=O)c2ccc(S(=O)(=O)NC)o2)s1,6.682%
O=c1cnc2cc(Cl)c(Cl)cc2n1CCO,-1.02%
CCNC(=O)CN(CC)S(=O)(=O)c1ccc(C)cc1,59.12%
CCCc1noc(C(C)Nc2cccc(C(N)=O)c2)n1 (stereo unspecified),67.71%
CN(C)CCC1CN(C(=O)C2CCCCC2)CCO1 (stereo unspecified),2.056%
CC(O)c1ccc2c(c1)CC(=O)N2 (stereo unspecified),5.947%
NC(=O)CCN1CCC(CN2CCCC2)CC1,19.98%
CN(C)C[C@@H]1CN(c2cccc(C#N)n2)C[C@@H]1CO,-10.29%
COc1cc(OC)c(NC(=O)N(C)C)cc1Cl,15.01%
CN(CC(N)=O)C(=O)c1ccc(OC2CCC2)cc1Cl,-2.648%
Cc1ccc(S(=O)(=O)NCCCN)c2cccnc12,37.75%
Cc1cc(C(=O)N2CCOCC2)c2ccc(F)cc2n1,-7.365%
Cc1noc(CSCC(=O)NCc2ccccc2F)n1,38.74%
N#Cc1cccnc1N1CCOC(c2nccs2)C1 (stereo unspecified),66.81%

For reference, 4 entries once more:

{"structure": "CC(C)C(C)NC(=O)CS(=O)(=O)Cc1ccccc1", "stereo": "stereo unspecified", "percent effect": 34.33}
{"structure": "COCCN1CCC(CC(=O)N2CCN(C)CC2)CC1", "percent effect": -18.98}
{"structure": "CC(=O)N1CCCN(Cc2nc(C3CC3)no2)CC1", "percent effect": 14.86}
{"structure": "CCn1ncnc1CNC(=O)Cn1nc(C)c(Cl)c1C", "percent effect": 9.142}

From ChEMBL document CHEMBL3988442, “University of Dundee, Small-Polar-MMV Screening Library” (2021).